A mixed list of measured activities; the numbers were collected in NIAID ChemDB.

Common to all: whole-cell or culture tests; agent: Staphylococcus aureus; endpoint: MIC

Neighbouring rows are from separate reports.

compound	strain	result
COC(=O)NC[C@H]1CN(c2ccc3c(c2)-n2cccc2COC3)C(=O)O1	ATCC 33591 (MRSA)	4 µg/mL
NCCCCCCCCCNc1cc2c(cc1F)c(=O)c(C(=O)O)cn2C1CC1	ATCC 6538P	>100 µg/mL
N#Cc1ccc(N2CCN(c3ccc(N4C[C@H](COc5ccccn5)OC4=O)cc3F)CC2)nc1	078 (oxford)	1 µg/mL
CC[C@H]1OC(=O)[C@@](C)(F)C(=O)[C@H](C)[C@@H](O[C@@H]2O[C@H](C)C[C@H](N(C)C)[C@H]2O)[C@@]2(C)C[C@@H](C)C(=NC(C)=O)[C@H](C)[C@@H](OC/C(=N\OCc3ccc4cnn(C(N)=O)c4c3)CO2)[C@]1(C)O	27660 (erythromycin A -resistant)	0.13 µg/mL
CCOC(=O)c1nc(-c2ccc(N3C[C@H](CNC(C)=O)OC3=O)cc2F)ns1	UC9213 (methicillin-susceptible)	>16 µg/mL
CNc1c(F)cc2c(=O)c(C(=O)O)cn(-c3cc(N)c(F)cc3F)c2c1C	W200 (methicillin-resistant)	0.015 µg/mL
CC(C)(CN)CNc1cc2c(cc1F)c(=O)c(C(=O)O)cn2C1CC1	ATCC 6538P	1.56 µg/mL
CC(=O)NC[C@H]1CN(c2ccc(-c3nsc(C#N)n3)c(F)c2)C(=O)O1	UC9213 (methicillin-susceptible)	4 µg/mL
N#Cc1ccc(N2CCN(c3ccc(N4C[C@H](CNc5cnccn5)OC4=O)cc3F)CC2)nn1	078 (oxford)	1 µg/mL
CC(C)CC(=O)NC[C@H]1CN(c2ccc3c(c2)-n2cccc2COC3)C(=O)O1	ATCC 49951 (SMITH)	16 µg/mL
CC(=O)NC[C@H]1CN(c2ccc(-c3nsc(C(N)=O)n3)c(F)c2)C(=O)O1	UC6685 (methicillin-resistant)	8 µg/mL
CC[C@H]1OC(=O)[C@@](C)(F)C(=O)[C@H](C)[C@@H](O[C@@H]2O[C@H](C)C[C@H](N(C)C)[C@H]2O)[C@@]2(C)C[C@@H](C)C(=NC(C)=O)[C@H](C)[C@@H](OC/C(=N\OCC#Cc3cccc(N)n3)CO2)[C@]1(C)O	33591 (erythromycin methicillin-resistant)	>64 µg/mL
Cc1c(NCCCO)c(F)cc2c(=O)c(C(=O)O)cn(-c3cc(N)c(F)cc3F)c12	209P	0.015 µg/mL
CC(C)(N)CNc1cc2c(cc1F)c(=O)c(C(=O)O)cn2C1CC1	ATCC 5278 (methicillin-resistant)	25 µg/mL
Cc1cn(-c2ccc(N3C[C@H](CNc4ccon4)OC3=O)cc2F)cn1	122 (novobiocin-resistant)	0.5 µg/mL
CCCCN(CCCC)CCCNc1cc2c(cc1F)c(=O)c(C(=O)O)cn2C1CC1	ATCC 5278 (methicillin-resistant)	>100 µg/mL
CC[C@H]1OC(=O)[C@H](C)C(=O)[C@H](C)[C@@H](O[C@@H]2O[C@H](C)C[C@H](N(C)C)[C@H]2O)[C@@]2(C)C[C@@H](C)C(=NC(=O)CN)[C@H](C)C(OC/C(=C\C=C\c3ccccc3)CO2)[C@]1(C)O	27660 (erythromycin-resistant)	1 µg/mL
CC[C@H]1OC(=O)[C@@](C)(F)C(=O)[C@H](C)[C@@H](O[C@@H]2O[C@H](C)C[C@H](N(C)C)[C@H]2O)[C@@]2(C)C[C@@H](C)C(=NC(C)=O)[C@H](C)[C@@H](OC/C(=N/OCc3ccc(-c4cccc(N)n4)s3)CO2)[C@]1(C)O	27660 (erythromycin A -resistant)	0.25 µg/mL
C=CC(=O)NC[C@H]1CN(c2ccc3c(c2)-n2cccc2COC3)C(=O)O1	ATCC 33591 (MRSA)	4 µg/mL
CC[C@H]1OC(=O)[C@H](C)C(=O)[C@H](C)[C@@H](O[C@@H]2O[C@H](C)C[C@H](N(C)C)[C@H]2O)[C@@]2(C)C[C@@H](C)C(=NC(C)=O)[C@H](C)C(OC/C(=C\C#Cc3ccccc3)CO2)[C@]1(C)O	29213 (erythromycin-susceptible)	0.25 µg/mL
COC(=O)n1ccc(-c2ccc(N3C[C@H](CNC(C)=O)OC3=O)cc2F)n1	UC6685 (methicillin-resistant)	4 µg/mL
CC[C@H]1OC(=O)[C@H](C)C(=O)[C@H](C)[C@@H](O[C@@H]2O[C@H](C)C[C@H](N(C)C)[C@H]2O)[C@@]2(C)C[C@@H](C)C(=NC(C)=O)[C@H](C)[C@@H](OC/C(=N\OCc3ccc(-c4cccc(N)n4)s3)CO2)[C@]1(C)O	27660 (erythromycin A -resistant)	0.25 µg/mL
Cc1c(NC2CC2)c(F)cc2c(=O)c(C(=O)O)cn(-c3cc(N)c(F)cc3F)c12	MR8736 (methicillin-resistant)	8 µg/mL
CCOCCCNc1cc2c(cc1F)c(=O)c(C(=O)O)cn2C1CC1	ATCC 5278 (methicillin-resistant)	>100 µg/mL
CC[C@H]1OC(=O)[C@H](C)C(=O)[C@H](C)[C@@H](O[C@@H]2O[C@H](C)C[C@H](N(C)C)[C@H]2O)[C@@]2(C)C[C@@H](C)C(=NC(C)=O)[C@H](C)C(OC/C(=C\c3ccccc3)CO2)[C@]1(C)O	29213 (erythromycin-susceptible)	0.5 µg/mL
CCOC(=S)NC[C@H]1CN(c2ccc3c(c2)-n2cccc2COC3)C(=O)O1	ATCC 33591 (MRSA)	4 µg/mL
CNCCCCCCN(C)c1cc2c(cc1F)c(=O)c(C(=O)O)cn2C1CC1	ATCC 5278 (methicillin-resistant)	6.25 µg/mL
O=C(NC[C@H]1CN(c2ccc3c(c2)-n2cccc2COC3)C(=O)O1)C(Cl)Cl	ATCC 29213 (MSSA)	4 µg/mL
CC[C@H]1OC(=O)[C@H](C)C(=O)[C@H](C)[C@@H](O[C@@H]2O[C@H](C)C[C@H](N(C)C)[C@H]2O)[C@@]2(C)C[C@@H](C)/C(=N\C(=O)OC)[C@H](C)C(OC/C(=C\C=C\c3ccccc3)CO2)[C@]1(C)O	29213 (erythromycin-susceptible)	0.5 µg/mL
O=C1O[C@@H](COc2ccon2)CN1c1ccc(-n2ccnc2)c(F)c1	078 (oxford)	1 µg/mL
CC[C@H]1OC(=O)[C@@](C)(F)C(=O)[C@H](C)[C@@H](O[C@@H]2O[C@H](C)C[C@H](N(C)C)[C@H]2O)[C@@]2(C)C[C@@H](C)C(=NC(C)=O)[C@H](C)[C@@H](OC/C(=N\OCc3ccc(C(N)=O)s3)CO2)[C@]1(C)O	29213 (erythromycin A-susceptible)	0.13 µg/mL

The first 4 rows once more:

compound | strain | result
COC(=O)NC[C@H]1CN(c2ccc3c(c2)-n2cccc2COC3)C(=O)O1 | ATCC 33591 (MRSA) | 4 µg/mL
NCCCCCCCCCNc1cc2c(cc1F)c(=O)c(C(=O)O)cn2C1CC1 | ATCC 6538P | >100 µg/mL
N#Cc1ccc(N2CCN(c3ccc(N4C[C@H](COc5ccccn5)OC4=O)cc3F)CC2)nc1 | 078 (oxford) | 1 µg/mL
CC[C@H]1OC(=O)[C@@](C)(F)C(=O)[C@H](C)[C@@H](O[C@@H]2O[C@H](C)C[C@H](N(C)C)[C@H]2O)[C@@]2(C)C[C@@H](C)C(=NC(C)=O)[C@H](C)[C@@H](OC/C(=N\OCc3ccc4cnn(C(N)=O)c4c3)CO2)[C@]1(C)O | 27660 (erythromycin A -resistant) | 0.13 µg/mL